From PMC11053914 (Viruses, 2024)

Tested on: HEK293T cells
Assay: Cytotoxicity assay (CellTiter-Glo) in HEK293T cells
Assay type: cell-based
Conditions: 2-fold dilutions from 100 μM, 48 h, DMSO group = 100%

In the case of CC[C@H](C)[C@H](NC(=O)[C@H](C)NC(=O)[C@H](CC(C)C)NC(=O)CNC(C)=O)C(=O)N[C@H](C(=O)N[C@H](C(=O)N[C@@H](Cc1ccc(O)cc1)C(=O)N[C@@H](Cc1c[nH]c2ccccc12)C(=O)NCC(=O)N[C@@H](CC(C)C)C(=O)N[C@@H](Cc1c[nH]cn1)C(=O)N[C@H](C(=O)NCC(=O)N[C@@H](CCC(=O)O)C(=O)N[C@@H](CCCNC(=N)N)C(=O)NCC(N)=O)[C@@H](C)O)[C@@H](C)O)[C@@H](C)O [VMP-63], the “cell viability of HEK293T cells” value is reported as “no significant effect on cell viability”.

In the case of CC[C@H](C)[C@H](NC(=O)[C@H](C)NC(=O)[C@H](CO)NC(=O)[C@H](CC(N)=O)NC(=O)[C@H](CO)NC(=O)[C@H](Cc1ccccc1)NC(=O)[C@H](CS)NC(=O)[C@H](CC(=O)O)NC(=O)[C@H](Cc1ccccc1)NC(=O)[C@H](Cc1ccc(O)cc1)NC(=O)[C@H](Cc1ccc(O)cc1)NC(=O)[C@H](CC(C)C)NC(=O)[C@H](CCCNC(=N)N)NC(C)=O)C(N)=O [VMP-108], the “cell viability of HEK293T cells” value is reported as “no significant effect on cell viability”.
